Results of unrelated studies side by side (data: NIAID ChemDB).

Common to all: host cell toxicity; endpoint: CC50

Blank or dashed fields: not listed here. CCn: concentration that lowers growth or viability of the cells by n%. Neighbouring rows are from separate reports.

| compound | cells | method | result |
|---|---|---|---|
| Cc1cc(Cl)nc(NC(=O)NC(=O)c2c(F)cccc2F)n1 | MDCK | MTS | >300 µM |
| Nc1nc(N)c2ncn(C[C@@H](CO)OCP(=O)(O)O)c2n1 | HSB-2 |  | 99 µg/mL |
| O=c1oc2ccccc2c2c1C(c1ccncc1)c1c(c3ccccc3oc1=O)O2 | SupT1 | MTT / absorbance | >1000 µM |
| Cc1cn([C@H]2C[C@H](N=[N+]=[N-])[C@@H](CO)O2)c(=O)[nH]c1=O | PM1 | MTT / absorbance | >100 µM |
| Cc1cn([C@H]2C[C@H](N=[N+]=[N-])[C@@H](CO)O2)c(=O)[nH]c1=O | HT-1080 |  | 5 µM |
| CC(C)[C@H](C(=O)NC(=S)Nc1nc(Cl)cc(Cl)n1)c1ccc(Cl)cc1 | MDCK | MTS | >300 µM |
| [2H][C@]1(O)C[C@H](n2cnc3c(N)nc(F)nc32)O[C@]1(C#C)CO | MT4-GFP | luminescence | >42 µM |
| Nc1nc(N)c2ncn([C@H]3CC[C@@H](CO)O3)c2n1 | BFU-E |  | 50.5 µM |
| Nc1ccc(-c2nc3cc(Cl)ccc3c(=O)[nH]2)cc1 | OM-10.1 | MTT | 344.9 µM |
| CC(C)C(C(=O)NC(=O)NC(=O)NC(C)(C)C)c1ccc(Cl)cc1 | MDCK | MTS | >300 µM |
| COc1cc(/C=C/c2ccc3c(C(=O)O)cc(C(=O)O)c(O)c3n2)cc(O)c1O | HeLaP4 | MTT | 60 µM |
| COC(=O)[C@H](C)NP(=O)(OC[C@@H]1C[C@]12C[C@@H]2n1cnc2c(N)ncnc21)Oc1ccccc1 | BSC-1 |  | 70 µM |
| Nc1ccc(-c2nc3ccccc3c(=O)[nH]2)cc1 | OM-10.1 | MTT | 338.8 µM |
| CSC(=S)P(=O)([O-])SC | BCBL-1 |  | >200 µM |
| COc1ccc(N2CCN(C(=O)CCN3CCCc4cc(OC)ccc43)CC2)cc1 | CD4+ T-cell | MTT / absorbance | 95.67 µg/mL |
| Cc1cccc(OCCNC(=O)c2ccncc2Cl)c1 | HeLa |  | >172 µM |
| Cc1cn([C@H]2C[C@H](N=[N+]=[N-])[C@@H](CO)O2)c(=O)[nH]c1=O | CFU-GM |  | 0.9 µM |
| COc1cccc(C2=NC(NC(=O)c3ccccc3OC)C(=O)Nc3ccccc32)c1 | HEP-2 |  | 2 µM |
| CCN1c2ncc(COc3ccncc3)cc2C(=O)N(C)c2ccc(Cl)nc21 | C8166-45 | MTT | >120 µM |
| Nc1nc2c(ncn2[C@H]2CO[C@@H](CO)O2)c(=O)[nH]1 | CBMC |  | >100 µM |
| [2H][C@]1(O)C[C@H](n2ccc3c(N)nc(Cl)nc32)O[C@]1(C#C)CO | MT4-GFP | luminescence | >42 µM |
| COC(=S)P(=O)([O-])SC | BCBL-1 |  | >200 µM |
| Cc1cccc(OCCNC(=O)c2c(Cl)ccc3cc(C)cnc23)c1 | HeLa |  | >140.9 µM |
| Nc1ncnc2c1c(Br)cn2[C@@H]1O[C@H](CO)[C@@H](O)[C@H]1O | PRK/E6SM |  | 0.4 µg/mL |
| COC(=O)[C@H](Cc1c[nH]c2ccccc12)NP(=O)(O)OC[C@H]1O[C@@H](n2cc(C)c(=O)[nH]c2=O)C[C@@H]1N=[N+]=[N-] | PBMC |  | >100 µM |
| O=C(NC1N=C(c2ccccc2)c2ccccc2NC1=O)c1cc(F)c(F)cc1F | HEP-2 |  | 8 µM |
| CCCOC(=O)C(CCSC[C@H]1O[C@@H](n2ccc3c(N)ncnc32)[C@H](O)[C@@H]1O)NC(=O)COC | PRK/E6SM |  | 200 µg/mL |
| [2H][C@]1(O)C[C@H](n2cc(F)c3c(N)ncnc32)O[C@]1(C#C)CO | MT4-GFP | luminescence | 31.9 µM |
| Cc1cn([C@H]2C[C@H](N=[N+]=[N-])[C@@H](CO)O2)c(=O)nc1N | BFU-E |  | ≥100 µM |
| Cn1c2ccccc2c2c3c(c4c5ccccc5n(CCC#N)c4c21)CNC3=O | U1/HIV-1(PMA) |  | 0.18 µM |
| COc1cc(Cl)nc(NC(=S)NC(=O)c2ccc(Cl)cc2F)n1 | MDCK | MTS | >300 µM |
| O=c1[nH]cnc2c1ncn2[C@H]1CC[C@@H](CO)O1 | NHDF |  | >100 µM |
| Nc1ccn([C@H]2CC[C@@H](CO)O2)c(=O)n1 | DU145 |  | 5 µM |
| CNC(=O)[C@@H](Cc1ccccc1)NC(=O)OC[C@H]1O[C@@H](n2cc(C)c(=O)[nH]c2=O)C[C@@H]1N=[N+]=[N-] | PBMC |  | >100 µM |
| CCc1nc(N)nc(N)c1-c1ccc(Cl)cc1 | CRL-1634 | MTT | >100 µM |
| C[C@@H]1[C@H](O)[C@@H](C)/C=C/C=C/CC/C=C/C=C/C=C/C=C/C(O[C@H]2O[C@H](C)[C@@H](O)[C@H](N)[C@@H]2O)CC2O[C@](O)(CC(O)C(O)CCC(O)CC(O)CC(O)CC(=O)O[C@H]1C)CC(O)C2C(=O)O | Mouse neuroblastoma CCL131 | MTT / tetrazolium | 15.62 µg/mL |
| CCN1c2ncc(CCc3ccccc3)cc2C(=O)N(C)c2ccc(Cl)nc21 | C8166-45 | MTT | >60 µM |
| O=c1[nH]c(=O)n([C@H]2C[C@H](O)[C@@H](CO)O2)cc1/C=C/Br | HSB-2 |  | 0.2 µg/mL |
| Cc1cc(C)nc(NC(=S)NC(=O)c2cccnc2Cl)n1 | MDCK | MTS | >300 µM |
| COc1ccc2c(c1)CCCN2CCC(=O)N1CCN(c2ccc(C)cc2)CC1 | CD4+ T-cell | MTT / absorbance | 86.18 µg/mL |
| O=C([S-])P(=O)([O-])[O-] | BCBL-1 |  | >300 µM |
| Nc1ccn(C[C@@H](CO)OCP(=O)(O)O)c(=O)n1 | NHDF |  | 200 µM |
| CCc1nc2ccc(Cl)cn2c1C(=O)NCc1ccc(N2CCC(c3ccc(OC(F)(F)F)cc3)CC2)cc1 | THP-1 human monocytic cells |  | >25 µM |
| Cc1cc(=O)nc2nc(NC(=O)c3ccc(-c4ccc([N+](=O)[O-])cc4)o3)sn12 | MDCK | MTS | >300 µM |
| CCOC(=O)C(CCSC[C@H]1O[C@@H](n2ccc3c(N)ncnc32)[C@H](O)[C@@H]1O)NC(C)=O | PRK/E6SM |  | 400 µg/mL |
| CNC(=O)[C@H](Cc1c[nH]c2ccccc12)NC(=O)OC[C@H]1O[C@@H](n2cc(C)c(=O)[nH]c2=O)C[C@@H]1N=[N+]=[N-] | PBMC |  | >100 µM |
| Nc1nc(NC2CC2)c2ncn(C=C3CC3CO)c2n1 | MEF | neutral red | 220 µM |
| CC(C)CCCC/C=C\CCCCCCCC(=O)O | J774A.1 macrophages | resazurin | >200 µg/mL |
| Nc1ncnc2c1ncn2[C@H]1C[C@@H](O)[C@@H](CO)O1 | PRK/E6SM |  | >400 µg/mL |
| COc1ccc2c(c1)CCCN2CCC(=O)N1CCN(c2ccc(Cl)cc2)CC1 | CD4+ T-cell | MTT / absorbance | 95.82 µg/mL |
| C=C(C)/C=C/[C@]12C[C@H](C)C3CC[C@](C)(N)[C@@H](CC[C@H]1C)[C@@H]32 | Vero cells |  | >128 µg/mL |
| O=C(NC1N=C(c2ccccc2)c2ccccc2NC1=O)c1cc(F)cc2c1OCOC2 | HEP-2 |  | 4.6 µM |
| CN(CCO)c1ccc(-c2nc3ccccc3c(=O)[nH]2)cc1 | OM-10.1 | MTT | 154.4 µM |
| COc1ccc2c(c1)CCCN2CCC(=O)N1CCN(c2ccc(F)cc2)CC1 | CD4+ T-cell | MTT / absorbance | 85.82 µg/mL |
| COc1ccc(C(C)(C)C)cc1C(=O)NC1N=C(c2ccccc2)c2ccccc2NC1=O | HEP-2 |  | 6.1 µM |
| COC(=O)[C@@H](Cc1c[nH]c2ccccc12)NC(=O)OC[C@H]1O[C@@H](n2cc(C)c(=O)[nH]c2=O)C[C@@H]1N=[N+]=[N-] | PBMC |  | >100 µM |
| c1cc(CN2CCCNCCNCCCNCC2)ccc1CN1CCCNCCNCCCNCC1 | P4R5 |  | >10 µM |
| Cc1cccc(OCCNC(=O)c2c(Cl)ccc3cc(Cl)cnc23)c1 | HeLa |  | >133.3 µM |
| COc1ccc2c(c1)CCCN2CCC(=O)N1CCN(Cc2ccccc2)CC1 | CD4+ T-cell | MTT / absorbance | 94.51 µg/mL |
| O=C(O)C(Cc1ccc(I)cc1)Nc1nc(-c2ccc(Cl)c(Cl)c2)cs1 | THP-1 monocytes |  | <50 µg/mL |
| [2H][C@]1(n2ccc3c(N)nc(Cl)nc32)C[C@H](O)[C@@](C#C)(CO)O1 | MT4-GFP | luminescence | >42 µM |
| CCOc1cc(OCC)n2sc(=NC(=O)c3ccc(-c4ccc([N+](=O)[O-])cc4)o3)nc2n1 | MDCK | MTS | >300 µM |
| CCN1c2ncc(COc3ccccc3)cc2C(=O)N(C)c2ccc(Cl)nc21 | C8166-45 | MTT | >60 µM |
| Cc1cccc(NCc2cc3ccccc3[nH]c2=O)c1 | HeLa |  | <189.2 µM |
| Cc1ccc(CSc2ncnc3c2ncn3[C@@H]2C[C@H](CO)[C@@H](O)[C@H]2O)cc1 | CRL-1634 | MTT | >100 µM |
| COC(=S)P(=S)(OC)OC | BCBL-1 |  | >200 µM |
| Nc1ncnc2c1ccn2[C@@H]1O[C@H](CSCCC(NC(=O)C(F)(F)F)C(=O)O)[C@@H](O)[C@H]1O | PRK/E6SM |  | 400 µg/mL |
| COc1ccc2c(c1)CCCN2CCC(=O)N1CCN(c2cccc(Cl)c2Cl)CC1 | CD4+ T-cell | MTT / absorbance | 104.1 µg/mL |
| Nc1nc(N)c2ncn([C@H]3CO[C@@H](CO)O3)c2n1 | DU145 |  | >500 µM |
| CN(C)c1nc(N)c(C(=O)N=C(N)N)nc1Cl | MDM |  | >10 µM |
| O=c1oc2ccccc2c2c1C(c1ccccn1)c1c(c3ccccc3oc1=O)O2 | SupT1 | MTT / absorbance | >1000 µM |
| CCOC(=O)C(CCSC[C@H]1O[C@@H](n2ccc3c(N)ncnc32)[C@H](O)[C@@H]1O)NC(=O)C(F)(F)F | PRK/E6SM |  | 100 µg/mL |
| O=C(O)P(=O)(O)O | HSB-2 |  | 274 µg/mL |
| O=C1Nc2ccccc2C(c2ccccc2)(c2cccc(Cl)c2)NC1NC(=O)N1CCCCC1 | HEP-2 |  | 2 µM |
| Cc1cn([C@H]2C[C@H](N=[N+]=[N-])[C@@H](CO)O2)c(=O)[nH]c1=O | MT4-GFP | luminescence | >8.4 µM |

A second listing of 10 rows from above:

compound	cells	method	result
O=C(NC1N=C(c2ccccc2)c2ccccc2NC1=O)c1cc(F)c(F)cc1F	HEP-2		8 µM
CC(C)C(C(=O)NC(=O)NC(=O)NC(C)(C)C)c1ccc(Cl)cc1	MDCK	MTS	>300 µM
Nc1nc(N)c2ncn([C@H]3CC[C@@H](CO)O3)c2n1	BFU-E		50.5 µM
O=c1oc2ccccc2c2c1C(c1ccncc1)c1c(c3ccccc3oc1=O)O2	SupT1	MTT / absorbance	>1000 µM
CCN1c2ncc(COc3ccccc3)cc2C(=O)N(C)c2ccc(Cl)nc21	C8166-45	MTT	>60 µM
COc1ccc2c(c1)CCCN2CCC(=O)N1CCN(c2ccc(C)cc2)CC1	CD4+ T-cell	MTT / absorbance	86.18 µg/mL
Nc1ccc(-c2nc3cc(Cl)ccc3c(=O)[nH]2)cc1	OM-10.1	MTT	344.9 µM
Cc1cn([C@H]2C[C@H](N=[N+]=[N-])[C@@H](CO)O2)c(=O)[nH]c1=O	MT4-GFP	luminescence	>8.4 µM
O=C(NC1N=C(c2ccccc2)c2ccccc2NC1=O)c1cc(F)cc2c1OCOC2	HEP-2		4.6 µM
Cc1cccc(OCCNC(=O)c2c(Cl)ccc3cc(Cl)cnc23)c1	HeLa		>133.3 µM